The subject of one series is DMPG LUVs + PGN. The experiment in a line: Differential scanning calorimetry with DMPG LUVs + peptidoglycan. Also on record: species or system Staphylococcus aureus. The settings on record: DSC, DMPG LUVs + 0.02% (w/w) PGN. Background: DSC measures the heat that a sample takes up or gives off during a temperature scan.
In the next series the test system is DMPG LUVs. The experiment in a line: Differential scanning calorimetry with DMPG LUVs. The settings on record: DSC.
The mark [1] stands for this setting: DMPG LUVs 1 mg.mL^-1, peptide to lipid ratio 1/25.
Where [2] appears, read: DMPG LUVs 1 mg.mL^-1, peptide to lipid ratio 1/50.
The mark [3] stands for this setting: DMPG LUVs 1 mg.mL^-1, peptide to lipid ratio 1/100.

Residues, ends and D or L forms follow the SMILES beside them.

As for `CC[C@H](C)[C@H](NC(=O)CNC(=O)[C@H](Cc1c[nH]c2ccccc12)NC(=O)[C@@H](NC(=O)CN)C(C)C)C(=O)N[C@@H](C)C(=O)N[C@@H](CCCCN)C(=O)N[C@H](C(=O)N[C@@H](C)C(=O)NCC(=O)N[C@@H](CCCCN)C(=O)N[C@H](C(=O)N[C@@H](CC(C)C)C(=O)NCC(=O)N[C@@H](CC(N)=O)C(=O)N[C@H](C(=O)N[C@@H](CC(C)C)C(=O)N1CCC[C@H]1C(=O)N[C@@H](Cc1c[nH]cn1)C(=O)N[C@H](C(=O)N[C@@H](Cc1ccccc1)C(=O)N[C@@H](CO)C(=O)N[C@@H](CO)C(=O)N[C@@H](CC(N)=O)C(=O)N[C@@H](CCC(N)=O)C(=O)N[C@@H](CO)C(N)=O)C(C)C)[C@@H](C)CC)C(C)C)[C@@H](C)CC` [DMS-DA6-NH2] (H-GVWGIAKIAGKVLGNILPHVFSSNQS-NH2), the Tm1 in the series on DMPG LUVs + PGN (peptide to lipid ratio 1/25) is 27.9 ± 0.2 °C; with DMPG LUVs + PGN (peptide to lipid ratio 1/50), 28.3 ± 0.3 °C; with DMPG LUVs + PGN (peptide to lipid ratio 1/100) it was 26.8 ± 0.2 °C; with DMPG LUVs (setting [1]) it was 28.0 ± 0.4 °C; with DMPG LUVs (setting [2]), 25.8 ± 0.1 °C; with DMPG LUVs (setting [3]) it was 23.9 ± 0.2 °C. Moreover, the Tm2 was 11.2 ± 0.2 °C in the series on DMPG LUVs + PGN (peptide to lipid ratio 1/25); 21.4 ± 0.5 °C in the series on DMPG LUVs + PGN (peptide to lipid ratio 1/50); 23.6 ± 0.2 °C in the series with DMPG LUVs + PGN (peptide to lipid ratio 1/100); 16.1 ± 4.0 °C in the series on DMPG LUVs (setting [1]); 22.9 ± 0.6 °C in the series on DMPG LUVs (setting [2]). For the same compound, the ΔHm1 came out at 2.29 ± 0.382 kcal/mol in the series on DMPG LUVs (setting [1]), 3.75 ± 0.382 kcal/mol in the series with DMPG LUVs (setting [2]) and 7.07 ± 0.884 kcal/mol with DMPG LUVs (setting [3]). The ΔHm2 is 0.478 ± 0.072 kcal/mol with DMPG LUVs (setting [1]) and 1.34 ± 0.526 kcal/mol with DMPG LUVs (setting [2]).

(Values after article PMC6191125, “Peptidoglycan potentiates the membrane disrupting effect of the carboxyamidated form of DMS-DA6, a Gram-positive selective antimicrobial peptide isolated from Pachymedusa dacnicolor skin” (PLoS ONE, 2018).)
